Measurements from patent US5968513A (priority 1996, dated 1999).
Several values for one entry are separate records, joined by “and”; a condition that tells them apart may be missing. Identical values can stand only once. Entries after “also recorded” stand apart in the source; their conditions may differ. Like-named read-outs stand apart in the source and are kept apart here.

Tested on: HIV-1
Format: in vivo, human
Details: for CD4/mm^3 Rx (post treatment with hCG): M = month from enrollment, weekly dose 12,500-70,000 IU; for Viral Load Rx (post treatment with hCG), NASBA: lower detection limit 4,000 copies
[1] = individual patients, listed as P
[2] = individual patients, listed as A

Human Chorionic Gonadotropin [hCG]
toxicity / tolerability in patients (hCG therapy of HIV-infected patients): well tolerated; also recorded: cholestasis was exacerbated; also recorded: liver toxicity may be a rare complication | CD4/mm^3 Rx (post treatment with hCG) (individual patients): 160 /mm^3 and 204 /mm^3 and 424 /mm^3 | Viral Load Rx (post treatment with hCG), NASBA (individual patients): 11,000 copies and 700,000 copies and less than 4000 copies and undetectable | Viral Load Rx (post treatment with hCG), RT-PCR (individual patients, RT-PCR, lower detection limit 100 copies): 2500 copies and 500 copies

Pregnyl: commercial hCG preparation Pregnyl, Organon
CD4/mm^3 Rx (post treatment with hCG) [1]: 160 /mm^3 and 204 /mm^3 and 3 /mm^3 and 35 /mm^3 and 17 /mm^3 and < 5 /mm^3 and 505 /mm^3 and 89 /mm^3 and 5 /mm^3 and 202 /mm^3 and 10 /mm^3 and 72 /mm^3 and 14 /mm^3 and 12 /mm^3 | Viral Load Rx (post treatment with hCG), NASBA [1]: 11,000 copies and 150,000 copies and < 4000 copies and 300,000 copies | Weight gain [1]: +6 Kg and +3 Kg and +2 Kg and +1 Kg and -3 Kg and 0 Kg and +1.5 Kg

hCG (APL): commercially available partially purified hCG preparation APL, Wyeth Ayerst
CD4/mm^3 Rx (post treatment with hCG) [2]: 170 /mm^3 and 48 /mm^3 and 424 /mm^3 and 21 /mm^3 and 213 /mm^3 and 678 /mm^3 and 218 /mm^3 and 86 /mm^3 and 361 /mm^3 and 46 /mm^3 and 483 /mm^3 | Viral Load Rx (post treatment with hCG), Roche Amplicor (individual patients, Roche Amplicor, lower detection limit 200 copies, listed as A): 1,700 copies and 40,000 copies and 55,000 copies and 98,000 copies and 22,313 copies and 6,777 copies and 200 copies and 22,510 copies | Weight gain [2]: -0.9 Kg and +1.8 Kg and +1.4 Kg and +3.2 Kg and +4.5 Kg and +2.3 Kg and -5.0 Kg and +5.4 Kg and +10.0 Kg
